Data as given in US5935995A, “Prodrugs for the therapy of tumors and inflammatory disorders” (Heochst Aktiengesellschaft, priority 1996, dated 1999).

The chains behind the UniProt entries cited, without tags or fusion partners. Where a name states a change or a piece, a line headed by the entry shows the natural chain unless it says otherwise.
UniProt P05804: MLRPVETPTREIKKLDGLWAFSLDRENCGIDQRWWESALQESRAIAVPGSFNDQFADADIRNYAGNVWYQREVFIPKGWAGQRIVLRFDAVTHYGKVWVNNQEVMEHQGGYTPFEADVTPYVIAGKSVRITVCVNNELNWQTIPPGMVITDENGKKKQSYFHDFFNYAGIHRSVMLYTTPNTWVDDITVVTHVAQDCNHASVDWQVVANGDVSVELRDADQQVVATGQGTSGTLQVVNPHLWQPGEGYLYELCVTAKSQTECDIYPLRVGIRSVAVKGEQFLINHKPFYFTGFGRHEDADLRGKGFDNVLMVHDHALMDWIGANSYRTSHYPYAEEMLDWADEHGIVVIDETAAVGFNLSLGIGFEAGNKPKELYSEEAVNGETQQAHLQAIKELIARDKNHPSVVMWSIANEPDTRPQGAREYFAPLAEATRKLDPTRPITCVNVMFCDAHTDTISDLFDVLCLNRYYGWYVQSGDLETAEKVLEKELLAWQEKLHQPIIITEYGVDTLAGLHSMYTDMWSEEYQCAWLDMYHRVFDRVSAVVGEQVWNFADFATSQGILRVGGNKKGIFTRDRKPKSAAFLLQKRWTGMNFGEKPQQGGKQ

Biological target: E. coli β-glucuronidase (Sigma) (Escherichia coli, UniProt P05804)
Assay: Enzymatic cleavage of F 373 on incubation with E. coli β-glucuronidase, HPLC analysis
Settings: for peak area (HPLC): 37° C., pH 7.2, with β-glucuronidase, starting from F 373

Row | Structure (SMILES) | peak area (HPLC) (0 min) | peak area (HPLC) (1 min) | peak area (HPLC) (5 min) | peak area (HPLC) (7 min) | peak area (HPLC) (10 min) | peak area (HPLC) (15 min) | peak area (HPLC) (25 min) | peak area (HPLC) (60 min) | enzymatic cleavage on incubation with b-glucuronidase (cleaved to compound 7, glucuronic acid and the spacer)
1 | CN(C(=O)Oc1ccc(N(CCCl)CCCl)cc1)c1cc([N+](=O)[O-])ccc1O[C@@H]1O[C@H](C(=O)O)[C@@H](O)[C@H](O)[C@H]1O [F 373, 2-[N-Methyl-N-[4-(N,N'-bis(2-chloroethyl)amino)phenyloxycarbonyl]-amino]-4-nitrophenyl-β-D-glucuronic acid] | 19.41 | 10.46 | 0.35 | 0 | 0 | 0 | 0 | 0 | cleaved enzymatically
2 | Cn1c(=O)oc2ccc([N+](=O)[O-])cc21 | 0 | 1.92 | 4.75 | 5.37 | 5.43 | 5.43 | 5.70 | 6.53 | 
